Anti-infective test results gathered from many reports (values: NIAID ChemDB through PubChem).

Shared fields: target-level tests

Fold resistance has wild type as its base. Neighbouring rows are from separate reports. ICn is the concentration giving n% inhibition. Inhibition is in % at the dose shown (toxicity tests: loss of growth or viability). An empty or dashed field is not shown.

structure | strain | method | protein | species | endpoint | mutations | dose | result
O=c1cnc2ccccc2n1CCNC(=S)Nc1ccc(Br)cn1 | - | nucleotide incorporation | Reverse transcriptase | HIV-1 | Ki | - | - | 0.2 µM
CCCCCCC[C@H](O)C[C@@H]1CC[C@H]2C(C(=O)O[C@H](C)CCCCCCC[C@@H]3C[C@@H]4CC[C@@H]5C[C@H](C)NC(=[N+]54)N3)=C(C)NC(N)=[N+]12 | NL4-3 | ELISA | Nef | HIV-1 | inhibition | - | 5 µM | 85.5%
CC(C)[C@H](NC(=O)OCc1ccccc1)C(=O)N[C@@H](CSC1CCCCC1)[C@@H](O)[C@H](O)[C@H](CSC1CCCCC1)NC(=O)[C@@H](NC(=O)OCc1ccccc1)C(C)C | - | fluorescence | Protease | HIV-1 | inhibition | - | 0.1 µM | 87%
CCCCCCCCC[C@@H]1C[C@@H]2CC[C@H]3C(C(=O)OC(C)(C)C)=C(C)NC(=[N+]23)N1 | NL4-3 | ELISA | Nef | HIV-1 | IC50 | - | - | <5 µM
Cc1cc(S(N)(=O)=O)ccc1NC(=O)COc1ccc(Cl)cc1C(=O)c1cc(Cl)cc(C#N)c1 | - | fluorescence | Reverse transcriptase | HIV-1 | fold resistance | RT-P236L | - | 3.77
C=CCOC(=O)C1=C(CCCCC[C@@H](C)O[Si](C)(C)C(C)(C)C)NC2=[N+]3[C@H](CC[C@@H]13)C[C@H](C)N2 | NL4-3 | ELISA | Nef | HIV-1 | IC50 | - | - | <5 µM
Cc1cc2c(cc1C)n1cccc1c(=O)n2CCNC(=S)Nc1ccc(Br)cn1 | - | nucleotide incorporation | Reverse transcriptase | HIV-1 | fold resistance | RT-K103N | - | 4
Cc1cccc(C)c1OCC(=O)N[C@@H](Cc1ccccc1)[C@H](O)CN1CC[C@@H](Sc2ccncc2)C[C@H]1C(=O)NC(C)(C)C | - | fluorescence | Protease | HIV | Ki | PR-L10I L23I M46I I84V | - | 0.000197 µM
CC1(C)OC(=O)/C(=C/C(=O)c2cn(Cc3cc(F)ccc3F)c3ccc(F)cc23)O1 | - | strand transfer / fluorescence | Integrase | HIV-1 | fold resistance | G140S | - | 1
CC(C)(C)OC(=O)NC(Cc1ccccc1)C(O)C(Cc1ccccc1)NC(=O)[C@H](CC(N)=O)NC(=O)OCc1ccccc1 | - | fluorescence | Protease | HIV-1 | inhibition | - | 0.1 µM | 95%
CC1(C)OC(=O)/C(=C/C(=O)c2cn(Cc3cc(F)ccc3F)c3ccc(Br)cc23)O1 | - | strand transfer / fluorescence | Integrase | HIV-1 | fold resistance | G140S | - | 0.8
CC[C@H]1C=CCC[C@@]2(C[C@@H]3CC[C@H]4[C@H](C(=O)OCCCCCCCCCCCCCCCC(=O)N(CCC[NH3+])C[C@@H](O)CC[NH3+])[C@@]5(CCC[C@@H](C)O5)NC(=[N+]34)N2)O1 | NL4-3 | ELISA | Nef | HIV-1 | inhibition | - | 5 µM | 83.9%
O=c1c2cccn2c2ccccc2n1CCNC(=S)Nc1ccc(Br)cn1 | - | nucleotide incorporation | Reverse transcriptase | HIV-1 | Ki | RT-Y188L | - | 2.5 µM
Cc1cn([C@@H]2O[C@H](CO[Si](C)(C)C(C)(C)C)[C@@]3(OS(=O)(=O)C=C3N)[C@H]2O[Si](C)(C)C(C)(C)C)c(=O)[nH]c1=O | - | nucleotide incorporation / radiometric | Reverse transcriptase | HIV | IC50 | RT-N137K | - | 2.1 µM
CC(O)/C=C/c1ccc2c(c1)c(C(=O)/C=C1\OC(C)(C)OC1=O)cn2Cc1ccc(F)cc1 | - | strand transfer / fluorescence | Integrase | HIV-1 | IC50 | G140S | - | 10.3 µM
O=C1c2cccnc2C(=O)N1CCNC(=S)Nc1ccc(Br)cn1 | - | nucleotide incorporation | Reverse transcriptase | HIV-1 | fold resistance | RT-L100I | - | 10.5
CC(C)C[C@H](NC(=O)OCc1ccccc1)C(=O)N[C@@H](CC(N)=O)C(=O)NC(Cc1ccccc1)C(O)C(Cc1ccccc1)NC(=O)OC(C)(C)C | - | fluorescence | Protease | HIV-1 | IC50 | - | - | <0.1 µM
c1ccc(C2SCc3nc4ccccc4n32)cc1 | - | - | Reverse transcriptase | HIV | fold resistance | RT-K103N Y188L | - | >2
CO[P@](=O)(c1cc(C)cc(/C=C/C#N)c1)c1c(C(N)=O)[nH]c2ccc(Cl)cc12 | - | - | Reverse transcriptase | HIV | IC50 | Y188L | - | 1.15 µM
CC(C)[C@H](NC(=O)c1ccccn1)C(=O)N[C@@H](Cc1ccccc1)[C@@H](O)[C@H](O)[C@H](Cc1ccccc1)NC(=O)[C@@H](NC(=O)c1ccccn1)C(C)C | - | fluorescence | Protease | HIV-1 | inhibition | - | 0.1 µM | 78%
CC[C@H]1C(=O)Nc2ccc(F)cc2N1C(=O)OC(C)C | - | nucleotide incorporation / radiometric | Reverse transcriptase | HIV | IC50 | RT-N137E | - | 0.013 µM
Cc1ccc(S(=O)(=O)n2cc(C(=O)/C=C3\OC(C)(C)OC3=O)c3cc(Br)ccc32)cc1 | - | strand transfer / fluorescence | Integrase | HIV-1 | fold resistance | G140S | - | 0.8
CC(C)[C@H](NC(=O)c1ccc2ccccc2n1)C(=O)N[C@@H](Cc1ccccc1)[C@H](O)CN1CC[C@@H](SCc2cccnc2)C[C@H]1C(=O)NC(C)(C)C | - | fluorescence | Protease | HIV | fold resistance | PR-L10I L23I M46I I84V | - | 41.8
CC(C)[C@H](NC(=O)NCc1ccccn1)C(=O)N[C@@H](Cc1ccccc1)C(O)[C@H](Cc1ccccc1)NC(=O)[C@@H](NC(=O)NCc1ccccn1)C(C)C | - | fluorescence | Protease | HIV-1 | inhibition | - | 0.001 µM | 33%
O=c1c2cccn2c2cccc(F)c2n1CCNC(=S)Nc1ccc(Br)cn1 | - | nucleotide incorporation | Reverse transcriptase | HIV-1 | Ki | - | - | 0.009 µM
Cc1ccc(S(=O)(=O)n2cc(C(C(=O)O)C(=O)O)c3cc(NC(=O)c4cccc(C)c4O)ccc32)cc1 | - | strand transfer / fluorescence | Integrase | HIV-1 | fold resistance | G140S | - | 0.9
CC[C@H]1C=CCC[C@@]2(C[C@@H]3CC[C@@H]4[C@H](C(=O)OCCCCCCCCCCC(=O)N(CCC[NH3+])C[C@@H](O)CC[NH3+])[C@]5(CCC[C@@H](C)O5)NC(=[N+]34)N2)O1 | NL4-3 | ELISA | Nef | HIV-1 | inhibition | - | 5 µM | 93.6%
O=c1c2cccn2ccn1CCNC(=S)Nc1ccc(Br)cn1 | - | nucleotide incorporation | Reverse transcriptase | HIV-1 | Ki | - | - | 0.018 µM
O=C(O)C(=O)/C=C(\O)c1cn(Cc2ccc(F)cc2)c2ccc(Br)cc12 | - | strand transfer / fluorescence | Integrase | HIV-1 | IC50 | G140S | - | 0.2 µM
CC(C)[C@H](NC(=O)CCc1cccnc1)C(=O)N[C@@H](Cc1ccccc1)C(O)[C@H](Cc1ccccc1)NC(=O)[C@@H](NC(=O)CCc1cccnc1)C(C)C | - | fluorescence | Protease | HIV-1 | IC50 | - | - | <0.1 µM
CC[C@H]1C=CCC[C@@]2(C[C@@H]3CC[C@@H]4[C@H](C(=O)OCCCCCC(=O)N(CCC[NH3+])C[C@@H](O)CC[NH3+])[C@]5(CCC[C@@H](C)O5)NC(=[N+]34)N2)O1 | NL4-3 | ELISA | Nef | HIV-1 | inhibition | - | 5 µM | 80.6%
Nc1nc2c(ncn2[C@H]2CC[C@@H](COP(=O)(O)OP(=O)(O)OP(=O)(O)O)O2)c(=O)[nH]1 | - | nucleotide incorporation / radiometric | Reverse transcriptase | HIV | fold resistance | RT-N137H | - | 14
COC(O)/C=C/c1ccc2c(c1)c(C(=O)/C=C1\OC(C)(C)OC1=O)cn2Cc1ccc(F)cc1 | - | strand transfer / fluorescence | Integrase | HIV-1 | IC50 | Y143R | - | 16.5 µM

The first 2 rows once more:

structure | strain | method | protein | species | endpoint | mutations | dose | result
O=c1cnc2ccccc2n1CCNC(=S)Nc1ccc(Br)cn1 | - | nucleotide incorporation | Reverse transcriptase | HIV-1 | Ki | - | - | 0.2 µM
CCCCCCC[C@H](O)C[C@@H]1CC[C@H]2C(C(=O)O[C@H](C)CCCCCCC[C@@H]3C[C@@H]4CC[C@@H]5C[C@H](C)NC(=[N+]54)N3)=C(C)NC(N)=[N+]12 | NL4-3 | ELISA | Nef | HIV-1 | inhibition | - | 5 µM | 85.5%